Tested on: HP influenza
Set-up: species or system mice
Details: mouse, in vivo

SMILES: NC(=O)c1ncn([C@@H]2O[C@H](CO)[C@@H](O)[C@H]2O)c1N [AICAR]
- mortality to lethal influenza challenge: reduced mortality
- survival after influenza infection: increased survival
